A mixed list of measured activities; the numbers were collected in NIAID ChemDB.

All rows: tests in culture; agent: Mycobacterium tuberculosis

An empty or dashed field is not shown.

smiles,strain,endpoint,read by,dose,cell line,changes,result
CO[C@H]1/C=C/O[C@@]2(C)Oc3c(C)c(O)c4c(O)c(c(C=Nc5ccncc5)c(O)c4c3C2=O)NC(=O)/C(C)=C\C=C\[C@H](C)[C@H](O)[C@@H](C)[C@@H](O)[C@@H](C)[C@H](OC(C)=O)[C@@H]1C,H37Rv,EC50,-,-,-,-,2 µg/mL
COc1ccc(C(Nc2nc(-c3ccc(O)cc3)cs2)C2CCCCC2=O)cc1,H37Rv,MIC,broth dilution / agar / visual reading,-,-,-,50 µg/mL
O=C(Cc1ccc([N+](=O)[O-])cc1)N1CCN(S(=O)(=O)c2cccc3cnccc23)CC1,SRMV2.6,MIC90,resazurin,-,-,Inosine monophosphate dehydrogenase-resistant,>250 µM
CC(SC(C)C(=O)NN=C1CCSCC1)C(=O)NN=C1CCSCC1,H37Rv,MIC,BACTEC,-,-,-,≥12.5 µg/mL
CO[C@H]1/C=C/O[C@@]2(C)Oc3c(C)c(O)c4c(O)c(c(/C=N/NCc5ccccc5)c(O)c4c3C2=O)NC(=O)/C(C)=C\C=C\[C@H](C)[C@H](O)[C@@H](C)[C@@H](O)[C@@H](C)[C@H](OC(C)=O)[C@@H]1C,H37Rv,EC50,-,-,-,-,0.5 µg/mL
Cc1coc2c1C(=O)C(=O)c1c-2ccc2c1CCCC2(C)C,-,inhibition,fluorescence,200 µM,-,-,25.63%
O=[N+]([O-])c1ccc(Sc2nc3c(Br)cc(Br)cc3[nH]2)c([N+](=O)[O-])c1,My 331/88,MIC,-,-,-,-,32 µM
COc1cc(C(=O)N2CCN(S(=O)(=O)c3cccc4cnccc34)CC2)cc(OC)c1OC,SRMV2.6,MIC90,resazurin,-,-,Inosine monophosphate dehydrogenase-resistant,>125 µM
C[C@H](N)C(=O)N[C@@H]1[C@H]2C(=C(O)C[C@@H](O)[C@@H]2O)C(=O)O[C@]1(C)C(Cl)Cl,EMB-R,MIC,-,-,-,-,3.1 µg/mL
COC(=O)C1=C(C)NC(C)=C(C(=O)OC)C1c1cn(-c2ccccc2)nc1-c1ccc(OC)cc1,H37Rv,inhibition,resazurin,6.25 µg/mL,-,-,5%
Cc1ccc(N(C(=O)CC(=O)N2N=C(c3ccccc3)C(N=Nc3ccc([N+](=O)[O-])cc3)C2=O)C(=O)c2ccc(Cl)cc2)cc1,H37Rv,MIC,BACTEC,-,-,-,≥12.5 µg/mL
FC(F)(F)C(F)(F)C(F)(F)C(F)(F)c1nc2c(Br)cc(Br)cc2[nH]1,My 331/88,MIC,-,-,-,-,16 µM
N#Cc1cnc(C(N)=O)c(Nc2ccccc2)n1,H37Rv,MIC,-,-,-,-,12.5 µg/mL
Cc1cc(C)c2c(=O)n(CC(O)CN3CCN(c4cccc(C(F)(F)F)c4)CC3)sc2n1,H37Rv,inhibition,BACTEC,12.5 µg/mL,-,-,100%
Cc1nc(N)sc1C(=O)C=Cc1ccc2c(c1)OCO2,H37Rv,MIC bound,resazurin,-,-,-,>6.25 µg/mL
Cc1cc(C)c2c(n1)S(=O)(=O)N(C/C=C/CN1CCN(c3ncccn3)CC1)C2=O,H37Rv,inhibition,BACTEC,12.5 µg/mL,-,-,0%
FC(F)(F)C(F)(F)C(F)(F)C(F)(F)c1nc2cc(Cl)c(Cl)cc2[nH]1,My 331/88,MIC,-,-,-,-,4 µM
COc1ccccc1N1CCN(CCCCN2C(=O)c3c(C)cc(C)nc3S2(=O)=O)CC1,H37Rv,EC50,BACTEC,-,-,-,>12.5 µg/mL
CCOC(=O)C1=C(C)NC(C)=C(C(=O)OCC)C1c1cn(-c2ccccc2)nc1-c1ccc(Cl)cc1,H37Rv,inhibition,resazurin,6.25 µg/mL,-,-,70%
COc1ccc(-c2csc(NC(c3ccccc3)C3CCCCC3=O)n2)cc1,H37Rv,MIC,broth dilution / agar / visual reading,-,-,-,50 µg/mL
CO[C@H]1/C=C/O[C@@]2(C)Oc3c(C)c(O)c4c(O)c(c(/C=N/OCCN5CCOCC5)c(O)c4c3C2=O)NC(=O)/C(C)=C\C=C\[C@H](C)[C@H](O)[C@@H](C)[C@@H](O)[C@@H](C)[C@H](OC(C)=O)[C@@H]1C,H37Rv,EC50,-,-,-,-,0.5 µg/mL
FC(F)(F)C(F)(F)C(F)(F)c1nc2c(Br)cc(Br)cc2[nH]1,My 331/88,MIC,-,-,-,-,16 µM
O=C(c1ccncc1)n1nc(-c2ccccc2)c(N=Nc2nc3ccc([N+](=O)[O-])cc3s2)c1-c1ccccc1,H37Rv,inhibition,resazurin,6.25 µg/mL,-,-,99%
Cc1cccc(Nc2nc(C#N)cnc2C(N)=O)c1,H37Rv,MIC,-,-,-,-,25 µg/mL
CC1OC(OC2C(OC3CCC4(C)C(CCC5(C)C4CC=C4C6CC(C)(C)CCC6(C(=O)OC6OC(COC7OC(CO)C(O)C(O)C7O)C(O)C(O)C6O)CCC45C)C3(C)CO)OCC(O)C2O)C(O)C(O)C1O,-,inhibition,fluorescence,200 µM,-,-,0%
O=C(NCC(=O)N1CCCC1)N/N=C/c1ccccc1O,H37Rv,inhibition,BACTEC,12.5 µg/mL,-,-,0%
O[C@H](c1cc(C(F)(F)F)nc2c(C(F)(F)F)cccc12)[C@@H]1CCCCN1,H37Ra,MIC,resazurin,-,-,-,20 µM
CCOC(=O)C1=C(C)NC(C)=C(C(=O)OCC)C1c1cn(-c2ccccc2)nc1-c1ccc(O)cc1,H37Rv,MIC,resazurin,-,VERO,-,1.56 µg/mL
Cc1cccc(C)c1Nc1nc(C#N)cnc1C(N)=O,H37Rv,MIC,-,-,-,-,>100 µg/mL
CC(C)[C@H](NC(=O)OC(C)(C)C)C(=O)N[C@@H](C)C(=O)N1CCC[C@H]1C(=O)O,H37Rv,inhibition,resazurin,6.25 µg/mL,-,-,11%
O=[N+]([O-])c1ccc(Sc2nc3c(Br)cc(Br)cc3[nH]2)cc1,My 331/88,MIC,-,-,-,-,2 µM
Cc1cc(C)c2c(OCCCCN3CCN(c4ccccn4)CC3)nsc2n1,H37Rv,inhibition,BACTEC,12.5 µg/mL,-,-,12%
CCOC(=O)/C=C/C(=O)N1CCN(C(=O)/C=C/C(=O)OCC)C(C)C1,H37Rv,MIC,BACTEC,-,-,-,≥12.5 µg/mL
CCOC(=O)C1=C(C)NC(C)=C(C(=O)OCC)C1c1cn(-c2ccccc2)nc1-c1ccc(F)cc1,H37Rv,inhibition,resazurin,6.25 µg/mL,VERO,-,100%
O=C(c1ccccc1)N1CCN(S(=O)(=O)c2cccc3cnccc23)CC1,H37Rv,MIC90,resazurin,-,-,-,>100 µM
Br.O=C1C=CCC2C3CCCN4CCCC(CN12)C34,-,inhibition,fluorescence,200 µM,-,-,11.85%
O=C(NC1CCN(S(=O)(=O)c2cccc3cnccc23)CC1)C1CCCCC1,SRMV2.6,MIC90,resazurin,-,-,Inosine monophosphate dehydrogenase-resistant,>100 µM
O=[N+]([O-])c1cc(Sc2nc3c(Cl)cc(Cl)cc3[nH]2)cc([N+](=O)[O-])c1,My 331/88,MIC,-,-,-,-,4 µM
O=C(C1CCCCC1)N1CCC(NS(=O)(=O)c2cccc3cnccc23)CC1,SRMV2.6,MIC90,resazurin,-,-,Inosine monophosphate dehydrogenase-resistant,>100 µM
CC(=O)Oc1ccc2c(c1)C(=O)CCCCCC(=O)O2,H37Rv,MIC bound,BACTEC,-,-,-,>12.5 µg/mL
FC(F)(F)C(F)(F)c1nc2cc(Cl)c(Cl)cc2[nH]1,My 331/88,MIC,-,-,-,-,8 µM
CCCCCCCCCCCCCCCC(=O)O[C@@H]1[C@@H](C)[C@@]2(O)[C@@H](C=C(CO)C[C@]3(O)C(=O)C(C)=C[C@@H]23)[C@H]2[C@]1(OC(C)=O)[C@]2(C)CO,H37Rv,MIC bound,resazurin,-,-,-,>6.25 µg/mL
COC(=O)C1=C(C)NC(C)=C(C(=O)OC)C1c1cn(-c2ccccc2)nc1-c1ccc([N+](=O)[O-])cc1,H37Rv,inhibition,resazurin,6.25 µg/mL,-,-,100%
CO[C@H]1/C=C/O[C@@]2(C)Oc3c(C)c(O)c4c(O)c(c(/C=N/N5CCN(C)CC5)c(O)c4c3C2=O)NC(=O)/C(C)=C\C=C\[C@H](C)[C@H](O)[C@@H](C)[C@@H](O)[C@@H](C)[C@H](OC(C)=O)[C@@H]1C,H37Ra,MIC,resazurin,-,-,-,0.03 µM
N#Cc1cnc(C(N)=O)c(Nc2ccc(O)cc2)n1,H37Rv,MIC,-,-,-,-,25 µg/mL
NC1[C@H]2CN(c3nc4c(cc3F)c(=O)c(C(=O)O)cn4-c3ccc(F)cc3F)C[C@@H]12,82 strains,MIC50,-,-,-,-,>4 µg/mL
CCCCCCCCCCCCCCCCS(=O)(=O)Nc1cc(C(=O)NN)cc(C(=O)NN)c1,H37Rv,MIC bound,BACTEC,-,-,-,>12.8 µg/mL
COc1cc(NC(C)CCCN)c2ncccc2c1,H37Ra,MIC,resazurin,-,-,-,1372 µM
O=C(C1CCCCC1)N1CCN(S(=O)(=O)c2cccc3ccccc23)CC1,SRMV2.6,MIC90,resazurin,-,-,Inosine monophosphate dehydrogenase-resistant,>100 µM
C1CCNCC1.S=C(S)N1CCCCC1,TAC-R,MIC,-,-,-,-,1.6 µg/mL
O=C1CCCCC1C(Nc1nc(-c2ccc(O)cc2)cs1)c1ccc(F)cc1,H37Rv,MIC,broth dilution / agar / visual reading,-,-,-,12.5 µg/mL
CO[C@H]1/C=C/O[C@@]2(C)Oc3c(C)c(O)c4c(O)c(c(/C=N/N5C(C)CN(Cc6ccccc6)CC5C)c(O)c4c3C2=O)NC(=O)/C(C)=C\C=C\[C@H](C)[C@H](O)[C@@H](C)[C@@H](O)[C@@H](C)[C@H](OC(C)=O)[C@@H]1C,H37Rv,EC50,-,-,-,-,0.2 µg/mL
CC(=O)O[C@H]1C(=O)[C@]2(C)[C@@H](OC(C)=O)C[C@H]3OC[C@@]3(OC(C)=O)[C@H]2[C@H](OC(=O)c2ccccc2)[C@]2(O)C[C@H](OC(=O)[C@H](OC(C)=O)[C@@H](NC(=O)c3ccccc3)c3ccccc3)C(C)=C1C2(C)C,CS-R,MIC,-,-,-,-,0.8 µg/mL
O=C(Nc1ccc2c(c1)OCO2)N1CCCN(S(=O)(=O)c2cccc3cnccc23)CC1,SRMV2.6,MIC90,resazurin,-,-,Inosine monophosphate dehydrogenase-resistant,>100 µM
O=c1c(O)c(-c2cc(O)c(O)c(O)c2)oc2cc(O)cc(O)c12,-,inhibition,fluorescence,200 µM,-,-,84.5%
C[N+]1([O-])[C@@H]2CC[C@H]1CC(OC(=O)C(CO)c1ccccc1)C2,H37Rv,MIC bound,BACTEC,-,-,-,>12.5 µg/mL
COc1c(O)cc2oc(-c3ccc(O)cc3)cc(=O)c2c1O,-,inhibition,fluorescence,200 µM,-,-,82.06%
Oc1[nH]c(N=C2N=c3ccccc3=N2)c2ccccc12,-,inhibition,BACTEC,0.5 µM,-,-,0%
CCOC(=O)C1=C(C)NC(C)=C(C(=O)OCC)C1c1cn(-c2ccccc2)nc1-c1ccc(Br)cc1,H37Rv,inhibition,resazurin,6.25 µg/mL,VERO,-,100%
C(=NCCc1ccccc1)c1ccccc1B1OB(c2ccccc2C=NCCc2ccccc2)OB(c2ccccc2C=NCCc2ccccc2)O1,H37Rv,MIC,BACTEC,-,-,-,128 µg/mL
COc1c(N2CCNC(C)C2)c(F)cc2c(=O)c(C(=O)O)cn(C3CC3)c12,H37Rv,MIC,broth dilution / agar / visual reading,-,-,-,6.25 µg/mL
NNC(=O)c1ccncc1,H37Rv,MIC,resazurin,-,-,-,0.6 µM
CO[C@H]1/C=C/O[C@@]2(C)Oc3c(C)c(O)c4c(O)c(c(C=Nc5ccccc5C)c(O)c4c3C2=O)NC(=O)/C(C)=C\C=C\[C@H](C)[C@H](O)[C@@H](C)[C@@H](O)[C@@H](C)[C@H](OC(C)=O)[C@@H]1C,H37Rv,EC50,-,-,-,-,5 µg/mL
Nc1cccc2c1C(=O)c1cccc3snc-2c13,H37Rv,inhibition,BACTEC,12.5 µg/mL,-,-,53%
CO[C@H]1/C=C/O[C@@]2(C)Oc3c(C)c(O)c4c(O)c(c(/C=N/N5C=NNC5)c(O)c4c3C2=O)NC(=O)/C(C)=C\C=C\[C@H](C)[C@H](O)[C@@H](C)[C@@H](O)[C@@H](C)[C@H](OC(C)=O)[C@@H]1C,H37Rv,EC50,-,-,-,-,>5 µg/mL
Cc1cccc(N2C(=O)C(=O)C(c3nc4ccccc4s3)C(=O)C2=O)c1C,H37Rv,inhibition,resazurin,6.25 µg/mL,-,-,-4%
COc1ccc(-c2csc(NC(c3ccc(F)cc3)C3CCCCC3=O)n2)cc1,H37Rv,MIC,broth dilution / agar / visual reading,-,-,-,50 µg/mL
Cc1cc(C2(c3cc(C)c(O)c(CN(CC(=O)O)CC(=O)O)c3)OS(=O)(=O)c3ccccc32)cc(CN(CC(=O)O)CC(=O)O)c1O,H37Rv,inhibition,BACTEC,12.5 µg/mL,-,-,0%
CCOC(=O)C1=C(C)NC(C)=C(C(=O)OCC)C1c1cn(-c2ccccc2)nc1-c1ccccc1,H37Rv,MIC,resazurin,-,VERO,-,1.56 µg/mL
CC(=O)N(C)c1ccc(Nc2cc(C)[nH]c3ccc4ncnc4c23)cc1,H37Rv,inhibition,BACTEC,12.5 µg/mL,-,-,20%
N#Cc1cnc(C(N)=O)c(Nc2cccc(O)c2)n1,H37Rv,MIC,-,-,-,-,25 µg/mL

A second listing of 4 rows from above:

| smiles | strain | endpoint | read by | dose | cell line | changes | result |
|---|---|---|---|---|---|---|---|
| CC(C)[C@H](NC(=O)OC(C)(C)C)C(=O)N[C@@H](C)C(=O)N1CCC[C@H]1C(=O)O | H37Rv | inhibition | resazurin | 6.25 µg/mL | - | - | 11% |
| O=C(C1CCCCC1)N1CCN(S(=O)(=O)c2cccc3ccccc23)CC1 | SRMV2.6 | MIC90 | resazurin | - | - | Inosine monophosphate dehydrogenase-resistant | >100 µM |
| COC(=O)C1=C(C)NC(C)=C(C(=O)OC)C1c1cn(-c2ccccc2)nc1-c1ccc([N+](=O)[O-])cc1 | H37Rv | inhibition | resazurin | 6.25 µg/mL | - | - | 100% |
| O=C(NC1CCN(S(=O)(=O)c2cccc3cnccc23)CC1)C1CCCCC1 | SRMV2.6 | MIC90 | resazurin | - | - | Inosine monophosphate dehydrogenase-resistant | >100 µM |

Percent inhibition refers to the dose given; in toxicity tests it is the harm to the cells. Lines come from different laboratories, so protocols vary. MIC50, MIC90 and the like: level of inhibition, or share of isolates inhibited. MIC bound: limit read from a one-dose screen. ECn is the concentration giving n% inhibition of infection, replication or growth.